{"source": "PubChem BioAssay AID504761 (Drosophila RNAi Screening Center, 2011)", "test": "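Insect host genes that dengue virus relies on to spread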 (primary screen)", "cells": "D.Mel-2 cells from Drosophila", "reagent": "long dsRNA against Drosophila genes", "challenge": "infection with dengue virus type 2; dose and infection time not stated", "measurement": "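Cells stained for dengue envelope protein and imaged; percent of infected cells per well on duplicate plates, ranked by infection, with stained nuclei counted for cell number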", "direction": "infection score: higher = more virus-infected cells; cell count: higher = more cells in the well", "call rule": "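Low infection ranks in the two replicates (chance level up to 0.065) followed by a retest with a 1.5-fold or larger significant decrease, p below 0.05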", "calls": "active = confirmed: knock-down lowers infection; inactive = not picked or not confirmed", "note": "The deposit covers about 22,000 reagents; shown is a random part of those with a known target gene and a result. In the full data, 116 (0.52%) got an active call. 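Calls depend on retest data that are not deposited; infection was ranked per plate without normalising between plates; the unit of the infection score is not given.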 Raw values are not corrected between plates. Reagents against one gene are numbered here. Not stated in the record: the amount of reagent, the time to read-out."}
{"gene knocked down": "Acp76A", "dsRNA no.": 1, "infection score, replicate 1": 5.48, "infection score, replicate 2": 14.4, "cell count, replicate 1": 6053, "cell count, replicate 2": 5451, "Outcome": "inactive"}
{"gene knocked down": "Acp76A", "dsRNA no.": 2, "infection score, replicate 1": 6.83, "infection score, replicate 2": 9.8, "cell count, replicate 1": 5136, "cell count, replicate 2": 5237, "Outcome": "inactive"}
{"gene knocked down": "CG4041", "dsRNA no.": 1, "infection score, replicate 1": 5.33, "infection score, replicate 2": 11.3, "cell count, replicate 1": 5459, "cell count, replicate 2": 5432, "Outcome": "inactive"}
{"gene knocked down": "CG4041", "dsRNA no.": 2, "infection score, replicate 1": 10.3, "infection score, replicate 2": 13.5, "cell count, replicate 1": 6297, "cell count, replicate 2": 5885, "Outcome": "inactive"}
{"gene knocked down": "Naa30B", "dsRNA no.": 1, "infection score, replicate 1": 2.1, "infection score, replicate 2": 3.3, "cell count, replicate 1": 6040, "cell count, replicate 2": 6554, "Outcome": "inactive"}
{"gene knocked down": "CG31226", "dsRNA no.": 1, "infection score, replicate 1": 3.35, "infection score, replicate 2": 24.8, "cell count, replicate 1": 6389, "cell count, replicate 2": 3804, "Outcome": "inactive"}
{"gene knocked down": "lncRNA:Hsromega", "dsRNA no.": 1, "infection score, replicate 1": 2.22, "infection score, replicate 2": 1.85, "cell count, replicate 1": 6204, "cell count, replicate 2": 6442, "Outcome": "inactive"}
{"gene knocked down": "lncRNA:Hsromega", "dsRNA no.": 2, "infection score, replicate 1": 9.2, "infection score, replicate 2": 1.12, "cell count, replicate 1": 6119, "cell count, replicate 2": 6085, "Outcome": "inactive"}
{"gene knocked down": "Mbs", "dsRNA no.": 1, "infection score, replicate 1": 2.45, "infection score, replicate 2": 2.58, "cell count, replicate 1": 5644, "cell count, replicate 2": 5163, "Outcome": "inactive"}
{"gene knocked down": "Mbs", "dsRNA no.": 2, "infection score, replicate 1": 7.84, "infection score, replicate 2": 25.7, "cell count, replicate 1": 6023, "cell count, replicate 2": 6287, "Outcome": "inactive"}
{"gene knocked down": "Mbs", "dsRNA no.": 3, "infection score, replicate 1": 1.74, "infection score, replicate 2": 1.02, "cell count, replicate 1": 6424, "cell count, replicate 2": 6873, "Outcome": "inactive"}
{"gene knocked down": "Mbs", "dsRNA no.": 4, "infection score, replicate 1": 10.5, "infection score, replicate 2": 6.09, "cell count, replicate 1": 6059, "cell count, replicate 2": 5633, "Outcome": "inactive"}
{"gene knocked down": "Trf4-1", "dsRNA no.": 1, "infection score, replicate 2": 12.4, "cell count, replicate 1": 437, "cell count, replicate 2": 2806, "Outcome": "inactive"}
{"gene knocked down": "CG34460", "dsRNA no.": 1, "infection score, replicate 1": 10.3, "infection score, replicate 2": 17.8, "cell count, replicate 1": 6539, "cell count, replicate 2": 3962, "Outcome": "inactive"}
{"gene knocked down": "BomBc1", "dsRNA no.": 1, "infection score, replicate 1": 0.58, "infection score, replicate 2": 7.72, "cell count, replicate 1": 686, "cell count, replicate 2": 5881, "Outcome": "inactive"}
{"gene knocked down": "BomBc1", "dsRNA no.": 2, "infection score, replicate 1": 0.19, "infection score, replicate 2": 0.05, "cell count, replicate 1": 6483, "cell count, replicate 2": 6543, "Outcome": "inactive"}
{"gene knocked down": "CG7366", "dsRNA no.": 1, "infection score, replicate 1": 3.55, "infection score, replicate 2": 5.15, "cell count, replicate 1": 6736, "cell count, replicate 2": 6733, "Outcome": "inactive"}
{"gene knocked down": "CG7366", "dsRNA no.": 2, "infection score, replicate 1": 18.6, "infection score, replicate 2": 6.04, "cell count, replicate 1": 6350, "cell count, replicate 2": 6354, "Outcome": "inactive"}
{"gene knocked down": "Obp50e", "dsRNA no.": 1, "infection score, replicate 1": 22.6, "infection score, replicate 2": 22.4, "cell count, replicate 1": 6307, "cell count, replicate 2": 6169, "Outcome": "inactive"}
{"gene knocked down": "COX7C", "dsRNA no.": 1, "infection score, replicate 1": 5.45, "infection score, replicate 2": 18.1, "cell count, replicate 1": 5578, "cell count, replicate 2": 5497, "Outcome": "inactive"}
{"gene knocked down": "Hmgcr", "dsRNA no.": 1, "infection score, replicate 1": 5.24, "infection score, replicate 2": 11.2, "cell count, replicate 1": 4714, "cell count, replicate 2": 4187, "Outcome": "inactive"}
{"gene knocked down": "Gr58b", "dsRNA no.": 1, "infection score, replicate 1": 2.9, "infection score, replicate 2": 7.07, "cell count, replicate 1": 7447, "cell count, replicate 2": 7152, "Outcome": "inactive"}
{"gene knocked down": "CG4882", "dsRNA no.": 1, "infection score, replicate 1": 10.9, "infection score, replicate 2": 12.5, "cell count, replicate 1": 5003, "cell count, replicate 2": 4054, "Outcome": "inactive"}
{"gene knocked down": "CG4882", "dsRNA no.": 2, "infection score, replicate 1": 12.9, "infection score, replicate 2": 9.55, "cell count, replicate 1": 5354, "cell count, replicate 2": 5443, "Outcome": "inactive"}
{"gene knocked down": "ab", "dsRNA no.": 1, "infection score, replicate 1": 3.45, "infection score, replicate 2": 10.3, "cell count, replicate 1": 5649, "cell count, replicate 2": 5832, "Outcome": "inactive"}
{"gene knocked down": "CG4017", "dsRNA no.": 1, "infection score, replicate 1": 2.67, "infection score, replicate 2": 0.92, "cell count, replicate 1": 6664, "cell count, replicate 2": 6704, "Outcome": "inactive"}
{"gene knocked down": "Nepl4", "dsRNA no.": 1, "infection score, replicate 1": 5.42, "infection score, replicate 2": 12.9, "cell count, replicate 1": 5978, "cell count, replicate 2": 3623, "Outcome": "inactive"}

Entries above whose target name starts with A or a:
{"gene knocked down": "Acp76A", "dsRNA no.": 1, "infection score, replicate 1": 5.48, "infection score, replicate 2": 14.4, "cell count, replicate 1": 6053, "cell count, replicate 2": 5451, "Outcome": "inactive"}
{"gene knocked down": "Acp76A", "dsRNA no.": 2, "infection score, replicate 1": 6.83, "infection score, replicate 2": 9.8, "cell count, replicate 1": 5136, "cell count, replicate 2": 5237, "Outcome": "inactive"}
{"gene knocked down": "ab", "dsRNA no.": 1, "infection score, replicate 1": 3.45, "infection score, replicate 2": 10.3, "cell count, replicate 1": 5649, "cell count, replicate 2": 5832, "Outcome": "inactive"}
